Consider one sequence from PMC11904634.

By UniProt entry, the sequences of proteins in these tests, tags left out. Where a name states a change or a piece, a line headed by the entry shows the natural chain unless it says otherwise.
UniProt Q8Z787: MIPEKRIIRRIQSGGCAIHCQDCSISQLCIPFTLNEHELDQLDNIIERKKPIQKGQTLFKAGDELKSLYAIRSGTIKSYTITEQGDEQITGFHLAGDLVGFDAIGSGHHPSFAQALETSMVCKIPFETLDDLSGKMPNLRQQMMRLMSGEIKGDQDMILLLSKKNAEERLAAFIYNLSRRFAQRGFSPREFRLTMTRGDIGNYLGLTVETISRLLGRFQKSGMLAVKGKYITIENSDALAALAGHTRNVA

In this series the target is MBP-FNR (UniProt Q8Z787). Put plainly: EMSA. As to conditions: 20 mM sodium phosphate (pH 6.8 for MBP-STY2660, pH 8 for MBP-FNR), 5% glycerol, 0.1 mg/ml BSA, 1 mM DTT (listed as 10x buffer); 20 min at 37 C; 6% PAGE, ethidium bromide; recombinant protein; residues 1-250; protein details: N-terminal MBP (pMAL-c2X); probe letters rebuilt from the primers and the genome. (In EMSA bound probe runs differently from free probe, usually more slowly.)

For at least one entry, the source does not settle the construct or the ends of the probe.

“GGGGTACCCTTTTACGCTATGACTGACCGCAGACTGGCTCAGTCCAATCCTGTCCCCTGCCCGACTGAAACTTTTGGCCTGGGCGACGGTAATAAAATACGCAGTTGACGCAGTGAATAGTTCATCGACTAGATTCATATATAGATGCAATAAATCAATTTTATTTCTCAAAGCGAAAAACGCAAAATAGCTGCACCGACTTTCAGGAGTTTTTATGAAACTTTTTCGTATCCTTGACCCTTTCACGCTGACACTTATCACCGTGGTACTACTGGCCTCTTTTTTCCCGGCGGAAGGCGGCTTTGTGCCTGTCGTTGAAGGCATTACGACAGCGGCCATCGCTCTGCTGTTTTTTATGCATGGTGCGAAGCTTTCGCGTGAAGCGATCATCGCTGGCGGCAGCCACTGGCGGTTGCATCTGTGGGTCATGTGTAGCACTTTTGTGCTCTTTCCTGTCCTCGGCGTACTGTTTGCCTGGTGGGCGCCTGTCAATGTCGACCCTATGCTCTACAGCGGCTTTGGATCCCG (double strand) [STY2660 -395+118 (513 bp)]”: the binding result is on record as “binds”.
